## Library screen at single concentrations

The values are deposited in ChEMBL (CHEMBL3988442, “University of Dundee, Small-Polar-MMV Screening Library” (2021)).

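Whole-cell growth test on Mycobacterium tuberculosis, read after 3 days in glucose-containing 7H9 medium; the read-out is not stated. Tested at 500 µM. Direction is inferred from retests: higher values go with more growth inhibition. Of about 18,000 compounds tested this way, about 1,400 (7.9%) reached 50% or more in at least one test.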

The filed quantity is “Percent Effect” (%). How 0% and 100% were set is not recorded. Most values in the screen are low, and negative values occur. This is part of a subset picked to be rich in strong results.

| structure | percent effect |
|---|---|
| `CC(N)CCc1ccc2c(c1)OCO2` (stereo not shown) | 69.76 |
| `Cc1cc(F)ccc1C(=O)Nc1cccc(CO)n1` | -6.475 |
| `CCCn1cc(C)c(N)n1` | 13.52 |
| `O=S(=O)(CCN1CCC[C@H]1CO)c1ccccc1` | 51.41 |
| `COc1cccc(-c2ncc(CN)s2)c1` | 65.16 |
| `CC(C)Cc1cc(CN)on1` | 5.324 |
| `O=C(c1ccoc1)N1CCC(NC2CCSCC2)CC1` | -11.14 |
| `CSCC[C@H](NC(C)=O)C(=O)NCCn1ccnc1C` | 3.415 |
| `Cc1nc(C(=O)NCc2cccs2)ccc1C#N` | 83.36 |
| `c1cncc(CN2CCN(Cc3cccnc3)CC2)c1` | 6.116 |
| `CCC[C@H]1CN(S(=O)(=O)Cc2ccc(F)cc2)C[C@@H]1N` | 51.29 |
| `c1cc2c(cc1CNCC1CCCO1)OCO2` (stereo not shown) | 6.734 |
| `O=S(=O)(C1CC1)N1CCC(Nc2ccccn2)CC1` | 7.708 |
| `CC(O)CN(C)Cc1ccc(N2CCCC2)nc1` (stereo not shown) | 0.8016 |
| `CNCC(C)(C)CO` | 10.81 |
| `COCCC(CO)NC(=O)NCc1cc(Cl)ccc1C` (stereo not shown) | 41.42 |
| `CN1CCN(c2cccnc2)CC1` | -1.978 |
| `Cc1ccc(C(=O)N(C)C)cc1F` | 0.2644 |
| `COc1ccc(C2NCCNC2=O)cc1` (stereo not shown) | -0.5437 |
| `CC(CO)NC(=O)NCc1ccnc(N2CCCC2)c1` (stereo not shown) | 4.766 |
| `CC(c1cccnc1)N(C)C(=O)c1cncc(F)c1` (stereo not shown) | 12.22 |
| `COc1ccc(C(=O)NC2CCN(C)CC2)c(OC)c1` | 2.264 |
| `CC(CN)N(C)C(=O)Cc1ccc(F)c(F)c1` (stereo not shown) | -6.146 |
| `CN(C)CC(=O)NC(C)(C)C(=O)NCC1CCCC1` | 1.777 |
| `CC(C#N)N(C)S(=O)(=O)c1cccc2ncccc12` (stereo not shown) | 33.42 |
| `NC(=O)C(N)c1ccc2c(c1)OCCO2` (stereo not shown) | 96.45 |
| `NC(=O)N1CCCC(Nc2nc(C3CC3)ns2)C1` (stereo not shown) | 11.09 |
| `Cc1cc(N)n(CC(=O)N2CCN(C)C(=O)C2C)n1` (stereo not shown) | -7.89 |
| `CC(C)Cc1cc(C(=O)N2CC[C@H](CO)[C@H](O)C2)on1` | 9.002 |
| `NCc1cc(F)c(N2CCOCC2)c(F)c1` | -11.26 |
| `Cc1cccc(CNC(=O)N2CCOC(C)C2)n1` (stereo not shown) | 1.583 |
| `Cc1ccc(NC(=O)Cn2ccnc2)cc1` | 62.25 |
| `N[C@@H]1CCOc2cc(F)ccc21` | 33.88 |
| `Cc1cccc(S(=O)(=O)NCCN)c1Br` | 24.98 |
| `COC(=O)c1ccc(N2CCCC2)nn1` | -2.988 |
| `CS(=O)(=O)CCN1CCC(Oc2ccc(F)cc2)CC1` | 77.22 |
| `NC1CCN(Cc2ccccc2F)CC1` | 17.44 |
| `CCn1cnnc1CNc1ncccc1F` | 12.47 |
| `COc1ccc2c(c1)C=C(S(N)(=O)=O)CC2` | 9.754 |
| `Nc1nc(CCCNC(=O)Cc2ccsc2)cs1` | 54.5 |
| `CC(CN)(CO)CO` | -5.271 |
| `c1cc(-c2nnco2)ccn1` | -1.223 |
| `NCCCc1cccc(F)c1` | 92.41 |
| `O=S1(=O)CCCN1CCNc1ncc(Cl)cc1Cl` | 61.54 |
| `NC(=O)CN1CCCC(C(=O)NC2CCCCC2)C1` (stereo not shown) | 5.936 |
| `CC(C)N(CCS(C)(=O)=O)C(=O)NCc1cccs1` | 23.97 |
| `CNCC(=O)NCCc1c(OC)ccc2ccccc12` | 59.74 |
| `Cc1ccc(C(=O)N2CCOCC2)cc1NS(C)(=O)=O` | 9.759 |
| `Cc1ccc(OCC(=O)Nc2nnn(C)n2)cc1` | 57.71 |
| `CC(C)c1cccc(S(=O)(=O)NCCN)c1` | 53.43 |
| `O=C1NCC(C(=O)NCc2cc(F)cc(Br)c2)N1` (stereo not shown) | 12.82 |
| `Cc1ccc(C)c(OCC(O)CN2CCOCC2)c1` (stereo not shown) | 27.95 |
| `CCCC(=O)NC1CCN(CC)CC1` | 7.587 |
| `O=C(OCC1CC1)C1=CN2CCS(=O)(=O)N=C2C=C1` | 11 |
| `CNC(=O)CSc1nnnn1-c1ccc(C(C)C)cc1` | 74.54 |
| `CC1CN(C)CCN1CC(=O)NCc1ccco1` (stereo not shown) | -2.235 |
| `Cn1cc(C(=O)Nc2ccc(-n3cncn3)nc2)cn1` | 6.476 |
| `COCCN(C)CCNC(=O)c1ccc(C)c(OC)c1` | 37.63 |
| `NC1CCNC2(CCC2)C1` (stereo not shown) | -1.53 |
| `Cc1cn2c(n1)CCC(NC(=O)COCC(F)(F)F)C2` (stereo not shown) | 11.06 |
| `CNCc1ccoc1` | 9.923 |
| `Cn1cc(CNC(=O)C2CSc3ccccc3O2)cn1` (stereo not shown) | 64.08 |
| `CCN1CCOC(C(=O)NCCOC)C1` (stereo not shown) | -6.583 |
| `CN1C(=O)C[C@H](CN)[C@H]1c1cccnc1` | 3.528 |
| `CC(CO)NS(=O)(=O)c1cc(N(C)C)ccc1Br` (stereo not shown) | 38.39 |
| `CC1CN(CC(=O)Nc2ccn(C)n2)CCCO1` (stereo not shown) | 2.271 |
| `CC(Cc1ccco1)NS(=O)(=O)N1CCOCC1` (stereo not shown) | 13.13 |
| `Cc1ocnc1C(=O)N1CCC(O)c2ccccc2C1` (stereo not shown) | 7.556 |
| `COc1cc(F)cc(CN)c1` | 6.412 |
| `CCC(CO)NC(=O)c1ccc(Cl)c(OC)c1` (stereo not shown) | -2.992 |
| `CCN1CCN(CC(C)CNc2ncccc2F)CC1` (stereo not shown) | 1.301 |
| `CNC(=O)C1CCCN(C(=O)c2cncc(Br)c2)C1` (stereo not shown) | 18.59 |
| `CC(C)(N)C(O)c1ccc(Br)cc1` (stereo not shown) | 73.27 |
| `COCC(C)(CCO)NCC(=O)Nc1ccccc1I` (stereo not shown) | 60.8 |
| `Cn1ccnc1N1CCN(c2ccc(C#N)cn2)CC1` | 52.45 |
| `Cc1nn(C)cc1C(C)Nc1ncccc1C#N` (stereo not shown) | 27.5 |
| `C[C@@H](CO)Nc1ncc(Cl)cc1Br` | 56.89 |
| `CC1(NC(=O)c2ccc(F)c(F)c2)CCS(=O)(=O)C1` (stereo not shown) | 18.02 |
| `CCCN1CCC(NCc2ncccc2F)CC1` | 22.85 |
| `CC(C)[C@H](N)C(=O)N(C)c1ccccc1` | -1.017 |
| `CC(C)(N)c1nnc[nH]1` | 6.183 |
| `Cn1nnnc1NCc1cccc(Cl)c1Cl` | 58.45 |
| `CN(Cc1cc(C2CC2)[nH]n1)C(=O)c1c[nH]c(=O)[nH]1` | 12.05 |
| `CSCCOC(=O)c1ccc2nncn2c1` | 18.22 |
| `CC(C)(C)CC(=O)NCCNC(=O)c1ccco1` | 19.81 |
| `OCC12CCCN(CC1)C2` (stereo not shown) | 1.59 |
| `COc1ccc(CNC(=O)c2cnccn2)cc1OC` | 46.13 |
| `Cc1ccc(CN)n1C` | 65.5 |